Test results from US20250241837A1, “MODIFIED CONE SNAIL POLYPEPTIDE, PREPARATION METHOD AND USE THEREOF” (published 2025).

Chains of the proteins cited; added tags and fusions are not shown.
UniProt Q99250, whole entry, looked up: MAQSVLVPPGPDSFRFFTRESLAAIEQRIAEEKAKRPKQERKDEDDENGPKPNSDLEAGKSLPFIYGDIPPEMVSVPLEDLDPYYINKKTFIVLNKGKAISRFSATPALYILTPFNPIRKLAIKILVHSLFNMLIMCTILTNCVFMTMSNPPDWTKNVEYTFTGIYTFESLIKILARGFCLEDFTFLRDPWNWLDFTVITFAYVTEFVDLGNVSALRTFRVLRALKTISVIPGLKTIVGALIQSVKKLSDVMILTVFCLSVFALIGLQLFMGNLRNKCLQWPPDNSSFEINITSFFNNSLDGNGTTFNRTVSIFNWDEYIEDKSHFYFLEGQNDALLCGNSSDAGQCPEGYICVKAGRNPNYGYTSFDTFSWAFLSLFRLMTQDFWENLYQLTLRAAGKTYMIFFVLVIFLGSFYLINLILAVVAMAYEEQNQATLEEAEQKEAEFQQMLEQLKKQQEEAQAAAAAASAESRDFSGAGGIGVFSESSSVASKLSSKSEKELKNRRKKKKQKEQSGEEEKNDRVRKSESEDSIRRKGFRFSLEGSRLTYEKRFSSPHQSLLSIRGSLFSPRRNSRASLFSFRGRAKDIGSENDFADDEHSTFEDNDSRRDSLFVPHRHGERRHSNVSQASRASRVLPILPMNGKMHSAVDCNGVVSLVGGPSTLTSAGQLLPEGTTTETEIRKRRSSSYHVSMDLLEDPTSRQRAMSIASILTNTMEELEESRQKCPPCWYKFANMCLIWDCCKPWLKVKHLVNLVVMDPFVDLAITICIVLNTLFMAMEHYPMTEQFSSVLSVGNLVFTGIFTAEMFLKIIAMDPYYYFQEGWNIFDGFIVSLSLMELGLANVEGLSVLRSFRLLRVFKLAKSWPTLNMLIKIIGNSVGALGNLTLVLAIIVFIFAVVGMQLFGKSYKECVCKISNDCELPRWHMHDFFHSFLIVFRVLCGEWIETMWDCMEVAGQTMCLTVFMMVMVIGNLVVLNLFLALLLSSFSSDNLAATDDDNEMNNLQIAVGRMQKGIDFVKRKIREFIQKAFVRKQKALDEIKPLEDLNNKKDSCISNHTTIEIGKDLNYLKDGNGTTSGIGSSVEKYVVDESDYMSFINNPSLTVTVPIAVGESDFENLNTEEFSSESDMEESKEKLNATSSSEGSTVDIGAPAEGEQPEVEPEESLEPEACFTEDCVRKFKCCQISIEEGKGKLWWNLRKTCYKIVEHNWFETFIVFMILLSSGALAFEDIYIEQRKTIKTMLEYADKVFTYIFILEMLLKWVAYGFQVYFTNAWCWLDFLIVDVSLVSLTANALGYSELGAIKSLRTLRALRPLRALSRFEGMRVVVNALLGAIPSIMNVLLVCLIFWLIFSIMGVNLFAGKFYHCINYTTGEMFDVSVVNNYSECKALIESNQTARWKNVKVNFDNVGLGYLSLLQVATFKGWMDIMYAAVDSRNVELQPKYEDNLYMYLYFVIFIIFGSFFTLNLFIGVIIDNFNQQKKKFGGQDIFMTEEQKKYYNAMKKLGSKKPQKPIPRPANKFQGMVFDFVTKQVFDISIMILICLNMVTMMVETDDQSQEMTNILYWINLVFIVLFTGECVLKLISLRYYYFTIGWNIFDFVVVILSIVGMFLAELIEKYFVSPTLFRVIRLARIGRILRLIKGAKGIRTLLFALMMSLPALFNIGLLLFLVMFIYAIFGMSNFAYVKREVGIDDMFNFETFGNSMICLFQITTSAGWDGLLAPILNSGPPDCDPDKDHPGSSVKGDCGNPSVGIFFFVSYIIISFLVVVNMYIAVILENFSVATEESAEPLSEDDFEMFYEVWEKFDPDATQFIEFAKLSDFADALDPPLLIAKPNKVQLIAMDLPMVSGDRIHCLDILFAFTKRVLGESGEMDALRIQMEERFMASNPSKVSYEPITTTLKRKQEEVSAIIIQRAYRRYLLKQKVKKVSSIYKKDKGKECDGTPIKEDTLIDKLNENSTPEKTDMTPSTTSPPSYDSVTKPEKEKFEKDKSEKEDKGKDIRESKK
UniProt Q14524, whole entry, looked up: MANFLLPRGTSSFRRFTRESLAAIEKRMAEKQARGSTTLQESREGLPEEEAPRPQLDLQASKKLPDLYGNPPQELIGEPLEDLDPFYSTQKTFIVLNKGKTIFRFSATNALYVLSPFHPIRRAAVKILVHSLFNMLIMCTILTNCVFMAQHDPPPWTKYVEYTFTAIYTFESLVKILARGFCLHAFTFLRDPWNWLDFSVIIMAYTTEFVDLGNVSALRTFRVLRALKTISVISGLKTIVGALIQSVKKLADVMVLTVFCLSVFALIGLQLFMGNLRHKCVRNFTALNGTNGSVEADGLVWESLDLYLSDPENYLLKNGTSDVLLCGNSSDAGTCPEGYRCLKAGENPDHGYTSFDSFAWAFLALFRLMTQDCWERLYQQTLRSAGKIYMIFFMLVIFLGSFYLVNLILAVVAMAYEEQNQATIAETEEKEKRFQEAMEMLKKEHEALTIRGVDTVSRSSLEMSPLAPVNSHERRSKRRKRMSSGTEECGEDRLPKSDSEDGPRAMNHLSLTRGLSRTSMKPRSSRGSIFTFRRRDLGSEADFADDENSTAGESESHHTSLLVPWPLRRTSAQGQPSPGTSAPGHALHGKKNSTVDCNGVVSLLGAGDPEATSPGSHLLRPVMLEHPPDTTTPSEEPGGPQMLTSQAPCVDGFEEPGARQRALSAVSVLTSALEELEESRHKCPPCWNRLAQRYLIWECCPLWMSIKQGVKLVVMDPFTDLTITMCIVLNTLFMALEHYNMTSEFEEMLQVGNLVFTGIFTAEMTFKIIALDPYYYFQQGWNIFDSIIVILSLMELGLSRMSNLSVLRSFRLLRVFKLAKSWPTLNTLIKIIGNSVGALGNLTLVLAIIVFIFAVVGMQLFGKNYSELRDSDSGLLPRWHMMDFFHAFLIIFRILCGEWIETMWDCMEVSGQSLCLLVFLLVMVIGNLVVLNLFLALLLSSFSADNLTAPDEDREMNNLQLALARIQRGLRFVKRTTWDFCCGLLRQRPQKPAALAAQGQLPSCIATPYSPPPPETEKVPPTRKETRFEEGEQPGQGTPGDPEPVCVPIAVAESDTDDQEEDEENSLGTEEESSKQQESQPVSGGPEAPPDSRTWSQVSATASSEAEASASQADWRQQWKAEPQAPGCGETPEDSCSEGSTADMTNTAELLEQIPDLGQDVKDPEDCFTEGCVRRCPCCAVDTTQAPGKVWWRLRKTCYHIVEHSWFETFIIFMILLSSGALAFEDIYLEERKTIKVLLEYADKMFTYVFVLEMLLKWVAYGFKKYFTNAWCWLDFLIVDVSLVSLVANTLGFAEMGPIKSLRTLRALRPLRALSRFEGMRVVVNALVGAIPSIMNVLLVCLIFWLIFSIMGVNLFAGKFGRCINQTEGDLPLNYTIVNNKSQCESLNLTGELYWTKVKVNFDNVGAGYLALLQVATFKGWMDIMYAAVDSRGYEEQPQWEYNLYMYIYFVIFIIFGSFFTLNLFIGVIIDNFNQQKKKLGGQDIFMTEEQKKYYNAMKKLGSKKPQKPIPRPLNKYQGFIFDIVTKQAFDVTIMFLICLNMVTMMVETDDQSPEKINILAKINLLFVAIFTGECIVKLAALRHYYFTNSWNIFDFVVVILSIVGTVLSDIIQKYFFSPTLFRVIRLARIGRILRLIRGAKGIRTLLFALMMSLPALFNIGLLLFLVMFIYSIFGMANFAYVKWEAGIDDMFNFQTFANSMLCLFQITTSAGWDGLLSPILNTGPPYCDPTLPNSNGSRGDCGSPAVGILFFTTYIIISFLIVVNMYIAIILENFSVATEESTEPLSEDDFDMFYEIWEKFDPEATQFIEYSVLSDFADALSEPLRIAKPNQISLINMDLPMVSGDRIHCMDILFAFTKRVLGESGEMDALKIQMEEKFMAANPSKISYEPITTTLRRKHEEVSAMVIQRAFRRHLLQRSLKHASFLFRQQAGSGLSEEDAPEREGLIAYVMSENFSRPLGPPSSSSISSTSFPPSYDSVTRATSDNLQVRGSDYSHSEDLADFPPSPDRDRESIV
UniProt Q15858, whole entry, looked up: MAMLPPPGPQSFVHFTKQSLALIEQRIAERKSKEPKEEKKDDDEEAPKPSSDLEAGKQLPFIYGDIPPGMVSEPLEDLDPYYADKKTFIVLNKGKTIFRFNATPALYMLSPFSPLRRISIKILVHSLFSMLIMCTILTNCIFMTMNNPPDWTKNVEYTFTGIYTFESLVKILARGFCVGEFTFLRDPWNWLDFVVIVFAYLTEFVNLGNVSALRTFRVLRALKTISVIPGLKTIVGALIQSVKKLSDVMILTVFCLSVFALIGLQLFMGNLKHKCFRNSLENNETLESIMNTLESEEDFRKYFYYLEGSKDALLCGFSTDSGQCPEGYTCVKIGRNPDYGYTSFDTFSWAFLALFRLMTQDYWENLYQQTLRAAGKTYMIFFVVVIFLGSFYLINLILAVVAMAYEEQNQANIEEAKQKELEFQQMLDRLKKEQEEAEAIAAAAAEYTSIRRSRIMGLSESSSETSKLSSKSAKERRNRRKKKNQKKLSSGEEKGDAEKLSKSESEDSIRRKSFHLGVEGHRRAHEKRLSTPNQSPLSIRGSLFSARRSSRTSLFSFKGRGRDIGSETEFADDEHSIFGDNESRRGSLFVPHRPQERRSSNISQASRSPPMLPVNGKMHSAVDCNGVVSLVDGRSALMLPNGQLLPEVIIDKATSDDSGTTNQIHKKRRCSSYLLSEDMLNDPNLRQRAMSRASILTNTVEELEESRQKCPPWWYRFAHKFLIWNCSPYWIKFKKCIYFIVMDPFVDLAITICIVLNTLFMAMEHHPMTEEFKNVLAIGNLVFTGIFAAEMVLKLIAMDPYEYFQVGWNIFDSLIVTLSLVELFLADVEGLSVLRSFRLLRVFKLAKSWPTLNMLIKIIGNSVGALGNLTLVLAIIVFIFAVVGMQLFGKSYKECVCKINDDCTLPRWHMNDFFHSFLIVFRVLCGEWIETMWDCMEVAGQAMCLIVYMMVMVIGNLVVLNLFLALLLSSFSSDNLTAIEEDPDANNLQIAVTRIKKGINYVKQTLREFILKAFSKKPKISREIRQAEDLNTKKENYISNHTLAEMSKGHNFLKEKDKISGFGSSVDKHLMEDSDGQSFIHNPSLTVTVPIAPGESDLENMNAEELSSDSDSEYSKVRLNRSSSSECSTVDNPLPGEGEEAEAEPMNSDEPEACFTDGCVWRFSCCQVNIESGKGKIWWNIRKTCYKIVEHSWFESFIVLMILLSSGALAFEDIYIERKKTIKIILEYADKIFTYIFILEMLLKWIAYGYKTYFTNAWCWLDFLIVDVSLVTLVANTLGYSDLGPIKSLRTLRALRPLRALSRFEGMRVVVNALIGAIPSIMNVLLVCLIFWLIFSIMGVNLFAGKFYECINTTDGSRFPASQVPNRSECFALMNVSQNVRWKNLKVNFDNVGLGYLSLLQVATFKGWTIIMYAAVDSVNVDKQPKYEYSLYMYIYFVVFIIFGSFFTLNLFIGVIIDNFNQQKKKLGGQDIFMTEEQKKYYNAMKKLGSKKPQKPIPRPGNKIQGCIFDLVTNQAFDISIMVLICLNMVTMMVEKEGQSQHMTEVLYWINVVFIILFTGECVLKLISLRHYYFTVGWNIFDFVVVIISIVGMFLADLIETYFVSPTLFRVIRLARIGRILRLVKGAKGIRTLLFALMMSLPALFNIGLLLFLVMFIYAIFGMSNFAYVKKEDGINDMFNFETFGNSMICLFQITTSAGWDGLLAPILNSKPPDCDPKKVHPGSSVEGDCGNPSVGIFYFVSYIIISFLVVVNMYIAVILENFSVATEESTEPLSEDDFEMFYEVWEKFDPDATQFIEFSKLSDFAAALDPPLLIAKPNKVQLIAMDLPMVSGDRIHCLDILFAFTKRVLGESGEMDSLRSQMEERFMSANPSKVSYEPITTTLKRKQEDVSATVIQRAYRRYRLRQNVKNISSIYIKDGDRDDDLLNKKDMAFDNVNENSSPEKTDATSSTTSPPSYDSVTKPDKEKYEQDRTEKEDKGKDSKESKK

Key:
Nav1.4 = settings: 100 nM
[1] = Isoelectric point as stated in the description; settings: method not given
[2] = system: human skin fibroblasts HFF-1; assay: MTT cytotoxicity test on human skin fibroblasts HFF-1; settings: HFF-1 cells, 24 h
[3] = Isoelectric point by isoelectric focused electrophoresis; settings: purified polypeptide
[4] = system: wrinkles caused by UVB irradiation; assay: Anti-wrinkle effect on wrinkles caused by UVB irradiation in mice; settings: UVB-irradiated mice, score 0-6
Nav1.2 = Nav1.2 (Homo sapiens, UniProt Q99250); assay: Electrophysiological recording of the voltage-gated sodium channel, Nav1.2; settings: 100 nM
Nav1.5 = Nav1.5 (Homo sapiens, UniProt Q14524); assay: Electrophysiological recording of the voltage-gated sodium channel, Nav1.5; settings: 100 nM
Nav1.7 = Nav1.7 (Homo sapiens, UniProt Q15858); assay: Electrophysiological recording of the voltage-gated sodium channel, Nav1.7; settings: 100 nM

CC[C@H](C)[C@H](NC(=O)[C@H](C)NC(=O)[C@H](CC(N)=O)NC(C)=O)C(=O)N[C@H]1CSSC[C@@H]2NC(=O)[C@H](CC(N)=O)NC(=O)[C@H](CCCNC(=N)N)NC(=O)[C@H](CO)NC(=O)[C@H](C)NC(=O)[C@@H]3CSSC[C@@H](C(=O)O)NC(=O)[C@H](CSSC[C@H](NC1=O)C(=O)NCC(=O)N[C@@H](Cc1ccccc1)C(=O)N1CCC[C@H]1C(=O)N[C@@H](CCCNC(=N)N)C(=O)N[C@@H](CO)C(=O)N3)NC(=O)[C@H](CCCNC(=N)N)NC(=O)[C@H](Cc1c[nH]cn1)NC(=O)[C@@H]1CCCN1C(=O)[C@H](CCCNC(=N)N)NC2=O
content range of each sample relative to the theoretical content (in lanolin, theoretical content 1 mg/g): ≤ 90% | average content of the polypeptide in 20 samples (in lanolin, theoretical content 1 mg/g, 20 samples): 0.90 ± 0.05 mg/g | dispersion in the lipid environment (lanolin): good dispersion | electrical conduction in the muscle retained (Nav1.4): about 10% | inhibition of the current in Nav1.4 (Nav1.4): about 90% | isoelectric point [1]: 9.01 | Cytotoxicity % ([2]; concentration 1 g/ml as printed in head): 0.00% | Cytotoxicity % ([2]; concentration 50 g/ml as printed in head): 1.25 ± 0.32% | Cytotoxicity % ([2]; concentration 200 g/ml as printed in head (200 μg/ml in text)): 2.67% | isoelectric point [3]: 9.01 | Wrinkle score at week 6 ([4]; 10 ng/mouse topical daily): 1.16 ·· | Wrinkle score at week 9 ([4]; 10 ng/mouse topical daily): 1.47 ·· | Wrinkle score at week 6 ([4]; 100 ng/mouse topical daily): 2.42 ·· | Wrinkle score at week 9 ([4]; 100 ng/mouse topical daily): 2.68 ·· | activity on Nav1.2 (Nav1.2): virtually inactive | activity on Nav1.5 (Nav1.5): virtually inactive | activity on Nav1.7 (Nav1.7): virtually inactive
